Compound potency records, mixed from different reports. Data source: NIAID ChemDB in PubChem.

All rows: tests in culture; species: Hepatitis C virus; measure: EC50

Two numbers with a dash give a range or band. Rows are shuffled and stem from different studies. ECn is the concentration giving n% inhibition of infection, replication or growth. Blank or dashed fields: not listed here.

SMILES | changes | strain or isolate | method | cell line | value
CCNc1cc2oc(-c3ccc(F)cc3)c(C(=O)NC)c2c(Cl)c1O |  |  | replicon | Huh7 | >100 µM
CCCCCCCCOc1ccc(N(C(N)=O)c2nc(-c3ccc(F)cc3)cs2)cc1 |  |  |  |  | <1 µM
CC1CCC(C(=O)N(CC2CC2)c2cc(-c3ccc(NC(=O)c4ccn(C)n4)cc3)sc2C(=O)O)CC1 |  | 1a | replicon |  | <0.5 µM
CS(=O)(=O)NC(=O)c1c(-c2ccc[nH]c2=O)c2c3occc3c(F)cc2n1Cc1ccc2onc(N)c2c1 |  |  | replicon |  | <0.5 µM
CC1CCC(C(=O)N(c2cc(-c3ccc(NC(=O)c4ccc(F)cc4)cc3)sc2C(=O)O)C(C)C)CC1 |  | 1a | replicon |  | <0.5 µM
COC(=O)N[C@H](C(=O)N1CCCC1c1ncc(-c2ccc(-c3ccc(-c4cnc([C@@H]5CC(C)CN5C(=O)[C@@H](NC(=O)CO)C(C)C)[nH]4)cc3)cc2)[nH]1)C(C)C | L31M | 1a | luciferase | Lunet | 0.00102 µM
O=C(Nc1cccc(C2SC(=Nc3cccc(F)c3)N(Cc3ccco3)C2=O)c1)[C@H]1CCCN1C(=O)OCc1ccccc1 |  |  | replicon | Huh7 | 1–5 µM
CN(C)S(=O)(=O)NC(=O)c1ccc2c(C3CCCCC3)c3n(c2c1)CC(C(=O)N1CCN(N2CCCC2)CC1)Cc1ccccc1-3 |  |  | replicon | Huh7 | 0.01–1 µM
CN1CCN(c2cc3c(cc2F)c(=O)c(-c2noc(Cc4ccccc4CC(=O)O)n2)cn3Cc2ccc(Cl)cc2)CC1 |  | 1b | replicon |  | <2 µM
COc1c(-c2ccc3cc(NS(C)(=O)=O)ccc3c2)cc(-n2ccc(=O)[nH]c2=O)cc1C(C)(C)C |  | genotype 1b Con1 | luciferase | Huh7 | 0.00059 µM
CN1CCN(c2cc3c(cc2F)c(=O)c(-c2noc(Cc4ccccc4)n2)cn3CCc2ccccc2)CC1 |  | 1b | replicon |  | <2 µM
O=C(Nc1ccc(C2SC(=Nc3cccc(F)c3)N(CCOc3ccccc3)C2=O)cc1)[C@H]1CCCN1C(=O)OCc1ccccc1 |  |  | replicon | Huh7 | 1–5 µM
O=c1c(-c2noc(Cc3ccccc3)n2)cn(Cc2ccc(Cl)cc2)c2ccc(O)cc12 |  | 1b | replicon |  | <10 µM
NC(=S)Nc1ccc(OCCCCCOc2ccccc2)cc1 |  |  | reporter gene / fluorescence | Ava5-EG(delta4AB)SEAP | 0.001–1 µM
CCc1coc2c1ccc1c2c(-c2ccc[nH]c2=O)c(C(=O)O)n1Cc1ccccc1F |  |  | replicon |  | >1.5 µM
CNC(=O)c1c(-c2ccc(F)cc2)oc2cc(-c3cc(COC(C)C)on3)c(OC)cc12 |  |  | replicon | Huh7 | <1 µM
CC(=O)N1c2cccc(O)c2NC2=C(C(=O)CC(C)(C)C2)C1c1ccc(OCc2ccncc2)cc1Cl |  | 1b | luciferase / reporter gene / replicon |  | 8.24 µM
CC(C)S(=O)(=O)NC(=O)c1ccc2c(C3CCCCC3)c3n(c2c1)CC(C(=O)N1CCOCC1)=Cc1ccccc1-3 |  |  | replicon | Huh7 | 0.01–1 µM
CNC(=O)c1c(-c2ccc(C#N)cc2)oc2ccc(OC(C)C)cc12 |  |  | replicon | Huh7 | <30 µM
COC(=O)c1ccc2c(C3CCCCC3)c3n(c2c1)CCOc1cc(OCc2cc(C(=O)OC(C)(C)C)ccc2Br)ccc1-3 |  |  | replicon | Huh7 | 0.01–1 µM
C[C@@H](NC(=O)OCc1ccccc1)C(=O)Nc1ccc(C2SC(=Nc3cc(F)cc(C#N)c3)N(Cc3ccco3)C2=O)cc1 |  |  | replicon | Huh7 | <0.1 µM
CC(C)C(=O)N1c2cccc(O)c2NC2=C(C(=O)CC(C)(C)C2)[C@@H]1c1ccc(OCc2ccccc2)cc1Cl |  | 1b | luciferase / reporter gene / replicon |  | 0.98 µM
CN1CCN(c2cc3c(cc2F)c(=O)c(-c2noc(CC4CC4)n2)cn3CC2CCCCC2)CC1 |  | 1b | replicon |  | <10 µM
CC1CCC(C(=O)N(c2cc(-c3ccc(NC(=O)c4cscn4)s3)sc2C(=O)O)C(C)C)CC1 |  | 1b | replicon |  | <0.5 µM
CCN(CC)c1cc2oc(-c3ccc(F)cc3)c(C(=O)NC)c2cc1OC(C)C |  |  | replicon | Huh7 | <1 µM
CC1CCC(C(=O)N(c2cc(-c3ccc(NC(=O)c4cnn(C)c4)cc3)sc2C(=O)O)C(C)C)CC1 |  | 1b | replicon |  | <0.5 µM
CS(=O)(=O)Nc1cccc(S(=O)(=O)NC(=O)c2c(-c3ccc[nH]c3=O)c3c4ccoc4ccc3n2Cc2ccc(F)cc2F)c1 |  |  | replicon |  | >1.5 µM
COC(=O)CNc1cc2c(cc1F)c(=O)c(-c1noc(Cc3ccccc3)n1)cn2Cc1ccc(C(F)(F)F)cc1F |  | 1b | replicon |  | <10 µM
Cc1cc(C(=O)Nc2ccc(-c3cc(N(C(=O)C4CCC(C)CC4)C(C)C)c(C(=O)O)s3)cc2)nn1C |  | 1b | replicon |  | <0.5 µM
COc1cccc(CN2C(=O)C(c3ccc(NC(=O)[C@@H](C)NC(=O)OCc4ccccc4)cc3)SC2=Nc2cccc(F)c2)c1 |  |  | replicon | Huh7 | 0.1–1 µM
NC(=S)Nc1cccc(OCCCc2ccccc2)c1 |  |  | reporter gene / fluorescence | Ava5-EG(delta4AB)SEAP | 0.001–1 µM
CN1CCN(c2cc3c(cc2F)c(=O)c(-c2noc(Cc4ccc(F)cc4)n2)cn3Cc2ccccc2F)CC1 |  | 1b | replicon |  | <10 µM
CN(C)S(=O)(=O)NC(=O)c1ccc2c(C3CCCCC3)c3n(c2c1)CC(=O)Nc1ccccc1-3 |  |  | replicon | Huh7 | 0.01–1 µM
CNC(=O)c1c(-c2ccc(F)cc2)oc2cc(N(C)C3CC3)c(OC(C)C)cc12 |  |  | replicon | Huh7 | <1 µM
CN(C)S(=O)(=O)NC(=O)c1ccc2c(C3CCCCC3)c3n(c2c1)C[C@H](C(=O)N1CCC(N2CCCC2)CC1)Cc1ccccc1-3 |  |  | replicon | Huh7 | 0.01–1 µM
O=C(NS(=O)(=O)C1CC1)c1c(-c2ccc[nH]c2=O)c2c3c(ccc2n1Cc1cc(F)ccc1F)CCCO3 |  |  | replicon |  | <1 µM
CC(=O)N1c2cccc(O)c2NC2=C(C(=O)CC(C)(C)C2)C1c1ccc(Cl)c(Cl)c1 |  | 1b | luciferase / reporter gene / replicon |  | 4.9 µM
CN(C)S(=O)(=O)NC(=O)c1ccc2c(C3CCCCC3)c3n(c2c1)CCN(C(=O)OC(C)(C)C)c1ccccc1-3 |  |  | replicon | Huh7 | 0.01–1 µM
O=C(O)c1cccc(Cn2c(C(=O)O)c(-c3ccccc3F)c3c4ccccc4ccc32)c1 |  |  | replicon |  | >10 µM
NC(=S)Nc1cccc(OCCCCCOc2ccc(N3CCCCC3)cc2)c1 |  |  | reporter gene / fluorescence | Ava5-EG(delta4AB)SEAP | 0.001–1 µM
O=C(NC1(C(=O)O)CCCC1)c1ccc2c(C3CCCCC3)c3n(c2c1)CCCNc1ccccc1C3 |  |  | replicon | Huh7 | 1–10 µM
O=C(O)c1c(-c2ccc[nH]c2=O)c2c3sccc3ccc2n1Cc1cc(F)ccc1F |  |  | replicon |  | >1.5 µM
CC1(C)CC(=O)C2=C(C1)Nc1c(O)cccc1N(C(=O)c1cnc3ccccc3n1)C2c1ccc(OCc2ccccc2)cc1F |  | 1b | luciferase / reporter gene / replicon |  | 1.23 µM
CNC(=O)c1c(-c2ccc(N3CCCC3)cc2)oc2ccc(OC(C)C)cc12 |  |  | replicon | Huh7 | <30 µM
CCCCCN(C)c1ccc(N(C(N)=O)c2nc(-c3ccccn3)cs2)cc1C(F)(F)F |  |  |  |  | <1 µM
O=C(O)c1ccc2c(C3CCCCC3)c3n(c2c1)CCCc1occc1-3 |  |  | replicon | Huh7 | 1–10 µM
CCCCCOc1ccc(N(C=O)c2nc(-c3cccnc3)cs2)cc1C(F)(F)F |  |  |  |  | <1 µM
CNC(=O)c1c(-c2ccc(F)cc2)oc2cc(N3CCOCC3)c(OC(C)C)cc12 |  |  | replicon | Huh7 | <1 µM
CN(C)CCNC(=S)Nc1ccc2c(c1)Cc1cc(Br)ccc1-2 |  |  | reporter gene / fluorescence | Ava5-EG(delta4AB)SEAP | 0.001–1 µM
CC1(C)CC(=O)C2=C(C1)Nc1c(O)cccc1N(C(=O)CCC(=O)N1CCOCC1)C2c1ccc(OCc2ccccc2)cc1Cl |  | 1b | luciferase / reporter gene / replicon |  | 4.08 µM
NC(=O)c1cc(Cn2c(C(=O)NS(=O)(=O)C3CC3)c(-c3ccc[nH]c3=O)c3c4c(c(F)cc32)CCO4)cs1 |  |  | replicon |  | <0.5 µM
CC(CCOc1ccccc1)CCOc1cccc(NC(N)=S)c1 |  |  | reporter gene / fluorescence | Ava5-EG(delta4AB)SEAP | 0.001–1 µM
C[C@H](NC(=O)OCc1ccccc1)C(=O)Nc1ccc(C2SC3=Nc4ccccc4CN3C2=O)cc1 |  |  | replicon | Huh7 | 1–5 µM
Cc1ccc(-c2csc(N(C(N)=O)c3ccc(NCC(C)C)c(C(F)(F)F)c3)n2)cn1 |  |  |  |  | <1 µM
O=C(O)/C=C/c1ccc(NC(=O)C2(NC(=O)c3ccc4c(c3)nc(-c3ccoc3)n4C3CCCCC3)CCC2)cc1 |  | 1b FC | replicon |  | 1.4 µM

For reference, 7 entries again:

SMILES	changes	strain or isolate	method	cell line	value
CNC(=O)c1c(-c2ccc(F)cc2)oc2cc(N3CCOCC3)c(OC(C)C)cc12			replicon	Huh7	<1 µM
O=C(NC1(C(=O)O)CCCC1)c1ccc2c(C3CCCCC3)c3n(c2c1)CCCNc1ccccc1C3			replicon	Huh7	1–10 µM
CS(=O)(=O)NC(=O)c1c(-c2ccc[nH]c2=O)c2c3occc3c(F)cc2n1Cc1ccc2onc(N)c2c1			replicon		<0.5 µM
O=C(Nc1cccc(C2SC(=Nc3cccc(F)c3)N(Cc3ccco3)C2=O)c1)[C@H]1CCCN1C(=O)OCc1ccccc1			replicon	Huh7	1–5 µM
CC(C)S(=O)(=O)NC(=O)c1ccc2c(C3CCCCC3)c3n(c2c1)CC(C(=O)N1CCOCC1)=Cc1ccccc1-3			replicon	Huh7	0.01–1 µM
C[C@H](NC(=O)OCc1ccccc1)C(=O)Nc1ccc(C2SC3=Nc4ccccc4CN3C2=O)cc1			replicon	Huh7	1–5 µM
CCNc1cc2oc(-c3ccc(F)cc3)c(C(=O)NC)c2c(Cl)c1O			replicon	Huh7	>100 µM